Compound potency records, mixed from different reports. Data source: NIAID ChemDB in PubChem.

All rows: growth or infection tests; species: HIV-1; cell line: MT-2; read-out: EC50

Neighbouring rows are from separate reports.

compound | strain | mutations | read by | result
Cc1cc(CNC[C@H](O)[C@@]23CC[C@]4(C)[C@H](CC[C@@H]5[C@@]6(C)CC[C@H](OC(=O)[C@H]7C[C@@H](C(=O)O)C7(C)C)C(C)(C)[C@@H]6CC[C@]54C)C2=C(C(C)C)C(=O)C3)n[nH]1 | 92HT599 |  | p24 / ELISA | <1 µM
C#C[C@@]1(CO)C=C[C@H](n2cc(C)c(=O)[nH]c2=O)O1 | Clinical isolate | M41L/D67N/K70R/K103N/L210W/T215F/K219Q | recombinant virus assay | 4.845 µM
CN(C(=O)[C@H](Cc1cc(F)cc(F)c1)NS(=O)(=O)CS(=O)(=O)N[C@@H](Cc1cc(F)cc(F)c1)C(=O)N(C)c1ccc2scnc2c1)c1ccc2scnc2c1 | NL4-3 |  | luciferase | 0.08 µM
Cc1cc(C(=O)NC(C)(C)CNC[C@H](O)[C@@]23CC[C@]4(C)[C@H](CC[C@@H]5[C@@]6(C)CC[C@H](OC(=O)[C@H]7C[C@@H](C(=O)O)C7(C)C)C(C)(C)[C@@H]6CC[C@]54C)C2=C(C(C)C)C(=O)C3)n[nH]1 | 92HT599 |  | p24 / ELISA | <1 µM
C=CCN(C(=O)[C@H](Cc1cc(F)cc(F)c1)NS(=O)(=O)c1ccccc1S(=O)(=O)N[C@@H](Cc1cc(F)cc(F)c1)C(=O)N(CC=C)c1ccc(OC)cc1)c1ccc(OC)cc1 | NL4-3 |  | luciferase | 1.74 µM
CC(C)C1=C2[C@H]3CC[C@@H]4[C@@]5(C)CC[C@H](OC(=O)[C@H]6C[C@@H](C(=O)O)C6(C)C)C(C)(C)[C@@H]5CC[C@@]4(C)[C@]3(C)CC[C@@]2(CCNCC(C)(C)NC(=O)c2ccc(C(F)(F)F)cc2)CC1=O | 92HT599 |  | p24 / ELISA | <1 µM
Cc1ncc(-c2ccc(OCC3CC=CC3)cn2)c(N2CCC(C)(C)CC2)c1[C@H](OC(C)(C)C)C(=O)O | NL4-3 |  | luminescence | 0.0009 µM
COc1ccc(N(C)C(=O)[C@H](Cc2ccccc2)NC(=O)Cn2c(=O)n(CC(=O)N[C@@H](Cc3ccccc3)C(=O)N(C)c3ccc(OC)cc3)c3cc(F)ccc32)cc1 | NL4-3 |  | luciferase | 0.08 µM
Cc1ncc(-c2ccc(OCCC3CCCCC3)cn2)c(N2CCC(C)(C)CC2)c1[C@H](OC(C)(C)C)C(=O)O | NL4-3 |  | luminescence | 0.0016 µM
CN(C(=O)[C@H](Cc1ccccc1)NC(=O)c1ccnc(N[C@@H](Cc2ccccc2)C(=O)N(C)c2ccc3scnc3c2)n1)c1ccc2scnc2c1 | NL4-3 |  | luciferase | 1.86 µM
CC(C)C1=C2[C@H]3CC[C@@H]4[C@@]5(C)CC[C@H](OC(=O)[C@H]6C[C@@H](C(=O)O)C6(C)C)C(C)(C)[C@@H]5CC[C@@]4(C)[C@]3(C)CC[C@@]2(CC(=O)NC(F)CNC(=O)c2ccc(Cl)cc2)CC1=O | 92HT599 |  | p24 / ELISA | <1 µM
Cc1ncc(-c2ccc(OCC3CC3)cn2)c(N2CCC(C)(C)CC2)c1[C@H](OC(C)(C)C)C(=O)O | NL4-3 |  | luminescence | 0.0016 µM
C[C@H](Cn1cnc2c(N)ncnc21)OCP(=O)(O)O | Clinical isolate | T69ins/K70R/M184V/K219Q | recombinant virus assay | 0.0172 µM
COCCCCCOc1ccc(-c2cnc(C)c([C@H](OC(C)(C)C)C(=O)O)c2N2CCC(C)(C)CC2)nc1 | NL4-3 |  | luminescence | 0.0014 µM
CC(C)C1=C2[C@H]3CC[C@@H]4[C@@]5(C)CC[C@H](OC(=O)[C@H]6C[C@@H](C(=O)O)C6(C)C)C(C)(C)[C@@H]5CC[C@@]4(C)[C@]3(C)CC[C@@]2(CC(=O)NCC2(NC(=O)c3ccc(Cl)cc3)COC2)CC1=O | 92HT599 |  | p24 / ELISA | <1 µM
COc1ccc(N(C)C(=O)[C@H](Cc2ccccc2)NC(=O)C(C)(C)C(=O)N[C@@H](Cc2ccccc2)C(=O)N(C)c2ccc(OC)cc2)cc1 | NL4-3 |  | luciferase | 1.87 µM
CC(C)C1=C2[C@H]3CC[C@@H]4[C@@]5(C)CC[C@H](OC(=O)[C@H]6C[C@@H](C(=O)O)C6(C)C)C(C)(C)[C@@H]5CC[C@@]4(C)[C@]3(C)CC[C@@]2(CCNC(=O)C2CCCC2)CC1=O | 92HT599 |  | p24 / ELISA | <1 µM
Cc1ncc(-c2ccc(OCC3CCC(C)CC3)cn2)c(N2CCC(C)(C)CC2)c1[C@H](OC(C)(C)C)C(=O)O | NL4-3 |  | luminescence | 0.0016 µM

Blank or dashed fields: not listed here. ECn: concentration that inhibits the pathogen or its effect by n%.